PubChem BioAssay AID1259414, Drosophila RNAi Screening Center | 2018

Screen: 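Host factors increasing or decreasing Wolbachia levels in cultured fly cells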 (primary screen)
Cell system: Drosophila JW18 cells infected with Wolbachia
Knock-down reagent: long dsRNA against Drosophila genes, 0.25 µg dsRNA per well of a 384-well plate
Time to read-out: 5 days
Challenge: cells persistently infected with Wolbachia before knock-down; no added drug
Read-out: 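Imaged fluorescence in situ signal for Wolbachia 23S rRNA per DAPI-counted host cell, given as a robust z-score within each plate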
Reading the numbers: Wolbachia per cell robust z: higher = more Wolbachia per host cell than the plate typical
Hit rule: 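Active if absolute robust z reaches 1.5 in two or more of three replicates, leaving out multi- or no-target dsRNAs, genes unexpressed in JW18 and A1 wells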
The screen tested about 24,000 reagents; this is a random part of those that have a named target and a result. In the full data, about 1,210 (5%) are marked active. 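Inactive calls also include excluded dsRNAs with several or no targets, genes unexpressed in JW18, and well A1, regardless of score.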 A plus sign joins genes that one reagent is predicted to hit. No sequences are given here.

CG10062 [DRSC05960] — Wolbachia per cell robust z, rep 1: 0.681; Wolbachia per cell robust z, rep 2: 0.892; Wolbachia per cell robust z, rep 3: 1; outcome: inactive
CG10062 [DRSC22535] — Wolbachia per cell robust z, rep 1: -2.14; Wolbachia per cell robust z, rep 2: -1.95; Wolbachia per cell robust z, rep 3: -0.219; outcome: inactive
CG10062 [DRSC24932] — Wolbachia per cell robust z, rep 1: -9.47; Wolbachia per cell robust z, rep 2: -0.176; Wolbachia per cell robust z, rep 3: -3.44; outcome: inactive
CG9674 [DRSC11088] — Wolbachia per cell robust z, rep 1: -2.15; Wolbachia per cell robust z, rep 2: -0.258; Wolbachia per cell robust z, rep 3: -1.95; outcome: active
CG9674 [DRSC11089] — Wolbachia per cell robust z, rep 1: 0.124; Wolbachia per cell robust z, rep 2: -0.693; Wolbachia per cell robust z, rep 3: 0.53; outcome: inactive
Enoph (Enolase-phosphatase) [DRSC12201] — Wolbachia per cell robust z, rep 1: -1.25; Wolbachia per cell robust z, rep 2: -0.171; Wolbachia per cell robust z, rep 3: 0.986; outcome: inactive
Enoph (Enolase-phosphatase) [DRSC41413] — Wolbachia per cell robust z, rep 1: 0.472; Wolbachia per cell robust z, rep 2: 0.4; Wolbachia per cell robust z, rep 3: -0.697; outcome: inactive
BRWD3 [DRSC15369] — Wolbachia per cell robust z, rep 1: -0.218; Wolbachia per cell robust z, rep 2: -9.88; Wolbachia per cell robust z, rep 3: -0.709; outcome: inactive
BRWD3 [DRSC16032] — Wolbachia per cell robust z, rep 1: 1.25; Wolbachia per cell robust z, rep 2: -1.86; Wolbachia per cell robust z, rep 3: 1.41; outcome: inactive
CG5665 [DRSC11783] — Wolbachia per cell robust z, rep 1: -2.85; Wolbachia per cell robust z, rep 2: 0.108; Wolbachia per cell robust z, rep 3: -0.131; outcome: inactive
CG3565 [DRSC04389] — Wolbachia per cell robust z, rep 1: -1.31; Wolbachia per cell robust z, rep 2: -0.266; Wolbachia per cell robust z, rep 3: -2.35; outcome: inactive
CG6420 [DRSC16035] — Wolbachia per cell robust z, rep 1: -1.44; Wolbachia per cell robust z, rep 2: 0.898; Wolbachia per cell robust z, rep 3: 0.545; outcome: inactive
Daao2 (D-amino acid oxidase 2) [DRSC02135] — Wolbachia per cell robust z, rep 1: -0.12; Wolbachia per cell robust z, rep 2: -9.55; Wolbachia per cell robust z, rep 3: -0.121; outcome: inactive

Hits, among the entries above:
CG9674 [DRSC11088] — Wolbachia per cell robust z, rep 1: -2.15; Wolbachia per cell robust z, rep 2: -0.258; Wolbachia per cell robust z, rep 3: -1.95; outcome: active

Continued.
CG11438 [DRSC11660] — Wolbachia per cell robust z, rep 1: 0.115; Wolbachia per cell robust z, rep 2: 0.406; Wolbachia per cell robust z, rep 3: 0.281; outcome: inactive
CG11106 [DRSC19381] — Wolbachia per cell robust z, rep 1: 0.56; Wolbachia per cell robust z, rep 2: 0.515; Wolbachia per cell robust z, rep 3: 0.033; outcome: inactive
CG31102 [DRSC14260] — Wolbachia per cell robust z, rep 1: -1.67; Wolbachia per cell robust z, rep 2: -0.0972; Wolbachia per cell robust z, rep 3: 0.0434; outcome: inactive
CG31102 [DRSC26350] — Wolbachia per cell robust z, rep 1: 1.08; Wolbachia per cell robust z, rep 2: 1.25; Wolbachia per cell robust z, rep 3: 2.15; outcome: inactive
dlt (discs lost) [DRSC08705] — Wolbachia per cell robust z, rep 1: -1.72; Wolbachia per cell robust z, rep 2: 0.567; Wolbachia per cell robust z, rep 3: 0.615; outcome: inactive
dlt (discs lost) [DRSC26168] — Wolbachia per cell robust z, rep 1: -7.6; Wolbachia per cell robust z, rep 2: -1.66; Wolbachia per cell robust z, rep 3: -0.203; outcome: active
Grasp65 [DRSC10917] — Wolbachia per cell robust z, rep 1: 0.333; Wolbachia per cell robust z, rep 2: 0.108; Wolbachia per cell robust z, rep 3: 0.476; outcome: inactive
Grasp65 [DRSC28969] — Wolbachia per cell robust z, rep 1: 0.454; Wolbachia per cell robust z, rep 2: 1.04; Wolbachia per cell robust z, rep 3: -0.0295; outcome: inactive
CR31054 + CG4849 [DRSC28625] — Wolbachia per cell robust z, rep 1: -0.693; Wolbachia per cell robust z, rep 2: -1.55; Wolbachia per cell robust z, rep 3: -0.631; outcome: inactive
Clamp (Chromatin-linked adaptor for MSL proteins) [DRSC03718] — Wolbachia per cell robust z, rep 1: -0.0451; Wolbachia per cell robust z, rep 2: 0.905; Wolbachia per cell robust z, rep 3: -3.06; outcome: inactive
Clamp (Chromatin-linked adaptor for MSL proteins) [DRSC21682] — Wolbachia per cell robust z, rep 1: -0.611; Wolbachia per cell robust z, rep 2: -0.411; Wolbachia per cell robust z, rep 3: -0.114; outcome: inactive
Clamp (Chromatin-linked adaptor for MSL proteins) [DRSC29935] — Wolbachia per cell robust z, rep 1: 0.111; Wolbachia per cell robust z, rep 2: 0.338; Wolbachia per cell robust z, rep 3: -3.85; outcome: inactive
